Compound potency records, mixed from different reports. Data source: NIAID ChemDB in PubChem.

All rows: tests in culture; agent: Adenovirus

Lines come from different laboratories, so protocols vary. An empty or dashed field is not shown. Two numbers with a dash give a range or band. ECn is the concentration giving n% inhibition of infection, replication or growth.

compound,cell line,read by,strain or isolate,read-out,result
Nc1nc2c(ccn2[C@@H]2C[C@H](CO)[C@H](O)[C@@H]2O)c(=O)[nH]1,-,-,-,MIC,>100 µg/mL
CCN(CC)c1cc(-c2ccc(OC)cc2O)on1,VERO,plaque count,ATCC VR10,EC50,>381 µM
CSc1nsc(-c2cccc3ccccc23)c1C#N,HEP-2,plaque count,TYPE 2,EC50,>4 µM
O=C(O)CC(NC(=O)CNC(=O)c1cc(NC2=NCCN2)cc(C(F)(F)F)c1)c1cc(Cl)cc(Cl)c1O,HUMAN 293/beta5,-,TYPE 2,EC50,<100 µM
Cc1ccc(S(=O)(=O)O)cc1.N/C(=N\N=C\c1cc(Br)cc(Br)c1O)NO,A549,plaque count,WT 300 (TYPE 5),EC50,5 µM
O=c1[nH]c(=O)n([C@H]2C[C@H](O)[C@@H](CO)O2)cc1/C=C/Br,HEL,cytopathic effect,TYPES 1-8,EC50,>125 µg/mL
COc1ccc(-c2cc(N3CCCCC3)no2)c(O)c1,VERO,plaque count,ATCC VR10,EC50,>364 µM
NS(=O)(=O)c1ncnc2c1ncn2[C@H]1C[C@H](O)[C@@H](CO)O1,-,cytopathic effect,TYPE 2,EC50,>320 µM
COc1cc(OC)c(/C=N/N=C(/N)NO)c(OC)c1.Cc1ccc(S(=O)(=O)O)cc1,VERO,plaque count,ATCC VR18 (TYPE 17),EC50,>50 µM
CCOc1ccc(-c2onc(N(CC)CC)c2Cc2c(N(CC)CC)noc2-c2ccc(O)cc2O)c(O)c1,VERO,plaque count,ATCC VR10,EC50,>17 µM
Nc1ccn([C@H]2CC[C@@H](CO)O2)c(=O)n1,HEP-2,-,TYPE 8,EC50,4 µg/mL
CC(=O)N[C@H]1C[C@@H](n2cnc3c(N)ncnc32)[C@H](O)[C@@H]1O,HFF,-,TYPE 1,EC50,>100 µg/mL
N#Cc1c(Cl)nsc1Cl,HEP-2,plaque count,TYPE 2,EC50,>4 µM
NC(N)=Nc1cccc(C(=O)NCC(=O)NC(CC(=O)O)c2cc(Cl)cc(Cl)c2)c1,HUMAN 293/beta5,-,TYPE 2,EC50,10–100 µM
Nc1ncnc2c1ncn2C[C@@H](CO)OCP(=O)(O)O,-,-,TYPE 3,MIC,0.3 µg/mL
COc1cc(OC)c(OC)cc1/C=N/N=C(/N)NO.Cc1ccc(S(=O)(=O)O)cc1,VERO,plaque count,ATCC VR18 (TYPE 17),EC50,>50 µM
CC1(C(=O)O)CCC2(C)CCC3(C)C(=CC(=O)C4C5(C)CCC(OC(=O)C6CCCCC6C(=O)O)C(C)(C)C5CCC43C)C2C1,-,virus yield,TYPE 5,EC50,<30 µM
NS(=O)c1ncnc2c1ncn2[C@@H]1O[C@H](CO)[C@@H](O)[C@@H]1O,-,cytopathic effect,TYPE 2,EC50,>320 µM
COc1ccc(-c2cc(N3CCCC3)no2)c(O)c1,VERO,plaque count,ATCC VR10,EC50,>384 µM
CSc1nsc(-c2ccc[n+](C)c2)c1C#N,HEP-2,plaque count,TYPE 2,EC50,>1250 µM
CN(C)c1cc(-c2ccc(O)cc2O)on1,VERO,plaque count,ATCC VR10,EC50,>227 µM
O=C(O)CC(NC(=O)CNC(=O)c1cccc(NC2=NCCCN2)c1)c1cc(Cl)cc(Cl)c1,HUMAN 293/beta5,-,TYPE 2,EC50,>100 µM
NSc1ncnc2c1ncn2[C@H]1C[C@H](O)[C@@H](CO)O1,-,cytopathic effect,TYPE 2,EC50,>320 µM
NCC(=O)N[C@@H](CCCN=C(N)N)C(=O)NCC(=O)N[C@@H](CCC(=O)O)C(=O)N[C@@H](CO)C(=O)N1CCC[C@H]1C(=O)O,HUMAN 293/beta5,-,TYPE 2,EC50,>2000 µM
Nc1nc2c(ncn2COCCO)c(=O)[nH]1,HEL,cytopathic effect,TYPES 1-8,EC50,>125 µg/mL
COc1ccc(-c2snc(SC)c2C#N)cc1,HEP-2,plaque count,TYPE 2,EC50,>10 µM
CC(C)CS[C@@H]1C[C@H](n2cnc3c(N)ncnc32)[C@@H](O)[C@H]1O,A549,cytopathic effect,TYPE 1,EC50,>100 µg/mL
Nc1ccn(C[C@@H](CO)OCP(=O)(O)O)c(=O)n1,-,-,TYPE 3,MIC,3 µg/mL
CCOc1ccc(-c2cc(N(CC)CC)no2)c(O)c1,VERO,plaque count,ATCC VR10,EC50,>362 µM

2 of the rows above, restated:

compound,cell line,read by,strain or isolate,read-out,result
CSc1nsc(-c2cccc3ccccc23)c1C#N,HEP-2,plaque count,TYPE 2,EC50,>4 µM
Nc1ccn([C@H]2CC[C@@H](CO)O2)c(=O)n1,HEP-2,-,TYPE 8,EC50,4 µg/mL